Results of unrelated studies side by side (data: NIAID ChemDB).

Common to all: tests in culture; agent: Mycobacterium tuberculosis

ECn is the concentration giving n% inhibition of infection, replication or growth. Inhibition is in % at the dose shown (toxicity tests: loss of growth or viability). Neighbouring rows are from separate reports. Two numbers with a dash give a range or band. MIC bound: limit read from a one-dose screen. A number after MIC or MFC names an inhibition level or a share of isolates. An empty or dashed field is not shown.

compound	endpoint	tested at	strain	mutations	method	value
O=C(Nc1ccc([N+](=O)[O-])cc1)c1ccccc1O	MIC		CNCTC MY 331/8			8 µM
C/C(=N\OC(=O)c1c(-c2c(Cl)cccc2Cl)noc1C)c1ccccc1O	MIC bound		H37Rv		resazurin	>6.25 µg/mL
CC1(C)[C@H]2CC[C@]1(C)[C@H](OC(=O)/C=C/C=C/c1ccc3c(c1)OCO3)C2	MIC		H37Ra			25 µg/mL
CO[C@H]1/C=C/O[C@@]2(C)Oc3c(C)c(O)c4c(O)c(c(/C=N/N5CCN(C)CC5)c(O)c4c3C2=O)NC(=O)/C(C)=C\C=C\[C@H](C)[C@H](O)[C@@H](C)[C@@H](O)[C@@H](C)[C@H](OC(C)=O)[C@@H]1C	MIC		M21	MDR	resazurin	>2 µg/mL
C1=C(c2nc(-c3cccnc3)no2)c2ccccc2C12CCN(CC1CCCO1)CC2	MIC		Beijing (E-47/94)	Drug-resistant	resazurin	0.78 µM
CCOc1ccc(/C=C2\N=C(c3ccccc3)OC2=O)cc1OCC	MIC bound		H37Rv		BACTEC	>12.5 µg/mL
O=C(NCc1ccccc1)c1ncccc1O	MIC		CNCTC MY 331/8			1000 µM
COc1ccc(NN2C(N)=C(C#N)C(c3cc4cc(C)ccc4nc3Cl)C3=C2CC(C)(C)CC3=O)cc1	MIC		H37Rv		agar	3 µg/mL
CC(C)N=c1cc2n(-c3ccc(Cl)cc3)c3ccccc3nc-2cc1Nc1ccc(Cl)cc1	MIC		MDR23		broth dilution / resazurin	16 µg/mL
O=[N+]([O-])c1ccc(-c2nc3ccccc3[nH]2)cc1	MIC		H37Rv		radiometric	>500 µM
O=C(N=C1C=CC(=NC(=O)OCc2ccccc2)C=C1)OCc1ccccc1	inhibition	12.5 µg/mL	H37Rv		BACTEC	-25%
CCCCn1c(C)c2c(OCCO)nn(C)c(=O)c2c1C	EC50		H37Rv			>12.5 µg/mL
CC1(C)CC(=O)C2=C(C1)N(Nc1ccc(F)cc1)C(N)=C(C#N)C2c1cc2cc(Cl)ccc2nc1Cl	MIC		H37Rv		agar	65 µg/mL
CCn1cc(C(=O)O)c(=O)c2cc(F)c(-n3cccc3)cc21	MIC50		64 strains			8 µg/mL
CCCc1cc(=O)oc2c3c(cc(OC)c12)O[C@H](C)[C@H](C)C3O	MIC		H37Ra			>128 µg/mL
COc1ccc2nc(-c3ccc4c(c3)OCO4)[nH]c2c1	MIC		H37Rv		radiometric	>500 µM
O=C(N/N=C/c1ccc([N+](=O)[O-])cc1)Nc1ccc2c(c1)C(=O)C(=O)N2CN1CCN(c2ccccc2)CC1	MIC		MDR		resazurin	12.5 µg/mL
O=C1OC2(C(F)(F)F)Oc3ccccc3CN2C12CCCCC2	MIC bound		H37Rv		resazurin	>6.25 µg/mL
COc1cc(C2(c3ncc[nH]3)S[C@@H](c3c(/C(=N/O)C(=O)O)[nH]c4ccccc34)SC[C@H]2O)ccc1O	EC50		H37Rv			>12.5 µg/mL
CCN1CCC(CCOC)(CN2c3ccccc3Sc3ccc(Cl)cc32)C1.Cl	MIC bound		H37Rv		BACTEC	≤12.5 µg/mL
O=C(Nc1ccn[nH]1)c1ccc([N+](=O)[O-])o1	MIC		H37Ra			6.25 µg/mL
COc1ccc(-c2nc3ccccc3[nH]2)cc1OC	MIC		H37Rv		radiometric	>500 µM
COc1cccc(/C(C#N)=N/NC(=O)c2nc[nH]c2C)c1	inhibition	12.5 µg/mL	H37Rv		BACTEC	31%
O=C(NCc1ccc(Cl)cc1)c1ncccc1S	MIC		CNCTC MY 331/8			8 µM
COc1ccc(-c2noc(C3=CC4(CCN(CCS(N)(=O)=O)CC4)c4ccccc43)n2)cc1	MIC		H37Rv		resazurin	>100 µM
CO[C@H]1/C=C/O[C@@]2(C)Oc3c(C)c(O)c4c(O)c(c(/C=N/N5CCN(C)CC5)c(O)c4c3C2=O)NC(=O)/C(C)=C\C=C\[C@H](C)[C@H](O)[C@@H](C)[C@@H](O)[C@@H](C)[C@H](OC(C)=O)[C@@H]1C	MIC		MDR		resazurin	25 µg/mL
FC(F)(F)c1ccc(-c2nc3ccccc3[nH]2)cc1	MIC		H37Rv		radiometric	>500 µM
O=C1OC(CN2CCOCC2)CN1/N=C/c1ccc([N+](=O)[O-])o1	inhibition	6.25 µg/mL	H37Rv		resazurin	-12%
CC1CN(c2cc3c(cc2F)c(=O)c(C(=O)O)cn3-c2ccc(F)cc2F)CCN1	MIC90		64 strains			1 µg/mL
CN[C@@H]1[C@H](O[C@H]2[C@H](O[C@H]3[C@H](O)[C@@H](O)[C@H](N=C(N)N)[C@@H](O)[C@@H]3N=C(N)N)O[C@@H](C)[C@]2(O)C=O)O[C@@H](CO)[C@H](O)[C@H]1O	MIC		MTCC 200		broth dilution	60 µg/mL
O=C(Nc1ccc(Br)cc1)c1ccccc1O	MIC		CNCTC MY 331/8			31 µM
COc1cc2oc3cc(O)c(CCC(C)C)c(O)c3c(=O)c2c(CCC(C)C)c1OC	MIC		M8		resazurin	0.78 µg/mL
CCCCn1c(C)c2c(=O)[nH]n(C)c(=O)c2c1C	inhibition	12.5 µg/mL	H37Rv			16%
NCCC(O)C(=O)N[C@H]1C[C@@H](N)[C@H](O[C@H]2O[C@H](CN)[C@@H](O)[C@H](O)[C@H]2N)[C@@H](O[C@@H]2O[C@H](CO)[C@H](O)[C@H]2O)[C@@H]1O	Geometric mean MIC		1 strain			1.6 µg/mL
CCCc1cc(=O)oc2c(C(=O)CC)c(OCOC)c3c(c12)OC(C)(C)CC3	MIC		H37Ra			>128 µg/mL
N=C(N)N.O=S(=O)(O)[O][Al]1[O]S(=O)(=O)[O]1	MIC		H37Rv		BACTEC	≥12.5 µg/mL
Cc1c2c(OCC(O)CN3CCc4ccccc4C3)nn(C)c(=O)c2c(C)n1-c1ccccc1	inhibition	12.5 µg/mL	H37Rv			6%
NNC(=O)c1ccncc1	MIC		H37Rv		visual reading	0.05 µg/mL
C=C1C(=O)O[C@@H]2C[C@@]3(C)C=CC(=O)C(=C)[C@@H]3C[C@H]12	MIC		PZA-R			>12.5 µg/mL
C=C/C(C)=C/[C@@]1(C)SC(=O)C(C)=C1O	MIC		PMH29:kasA			30 µg/mL
O=C(O)c1cn(-c2ccc(F)cc2)c2cc(N3CCNCC3)c(F)cc2c1=O	MIC50		64 strains			4 µg/mL
NNC(=O)c1cccs1	MIC		H37Rv		visual reading	5–10 µg/mL
COc1ccc(-c2noc(C3=CC4(CCN(CC5CCCO5)CC4)c4ccccc43)n2)cc1	MIC		TB366	Spiroindene-resistant	turbidity	3 µM
O=C(NCc1ccc(F)cc1)c1ncccc1O	MIC		CNCTC MY 331/8			250 µM
CCC1CN(c2c(F)cc3c(=O)c(C(=O)O)cn(C4CC4)c3c2OC)CCN1	MIC		Isolate TN1626			0.1 µg/mL
CCCCn1c(C)c2c(=O)n(C)n(Cc3ccc(Cl)cc3)c(=O)c2c1C	EC50		H37Rv			<12.5 µg/mL
CCOC(=O)C1=C(Nc2ccccc2)OC/C1=N/NC(=O)Cc1ccccc1	inhibition	12.5 µg/mL	H37Rv		BACTEC	2%
CCCc1cc(=O)oc2c(C(=O)CC)c(OCC)c3c(c12)OC(C)(C)C=C3	MIC		H37Ra			128 µg/mL
NNC(=O)c1ccncc1	MIC		M11		resazurin	2 µg/mL
Cc1ccc(/C=N/NC(=O)Nc2ccc3c(c2)C(=O)C(=O)N3CN2CCN(c3ccccc3)CC2)cc1	MIC		MDR		resazurin	12.5 µg/mL
CC(=O)O[C@H]1C(=O)[C@@]2(C)C([C@H](OC(=O)c3ccccc3)[C@]3(O)CC(OC(=O)C(OC(=O)CCCC(=O)NCCCN(C)C)C(NC(=O)c4ccccc4)c4ccccc4)C(C)=C1C3(C)C)C1(OC(C)=O)COC1C[C@@H]2O.Cl	inhibition	12.5 µg/mL	H37Rv		BACTEC	17%
CO[C@H]1/C=C/O[C@@]2(C)Oc3c(C)c(O)c4c(O)c(c(/C=N/N5CCN(C)CC5)c(O)c4c3C2=O)NC(=O)/C(C)=C\C=C\[C@H](C)[C@H](O)[C@@H](C)[C@@H](O)[C@@H](C)[C@H](OC(C)=O)[C@@H]1C	MIC		MTCC 200		broth dilution	500 µg/mL
Cc1ccc2nc(Cl)c(C3C(C#N)=C(N)N(Nc4ccc(F)cc4)C4=C3C(=O)CC(C)(C)C4)cc2c1	MIC		H37Rv		agar	33 µg/mL
COC(=O)NC(C(C)C)C(C)(CC(O)O[C@H]1C/C=C(\C)[C@@H]2CC[C@@H]3[C@@H](OC4CC(OC5CC(O)C(OC6CC(O)C(OC)C(C)O6)C(C)O5)C(O)C(C)O4)[C@@H](C)C[C@H](C)[C@H]3[C@]2(C)C(O)=C2C(=O)O[C@]3(C[C@@H](C)C(CO)C[C@H]3/C=C/1C)C2=O)[N+](=O)[O-]	MIC bound		H37Rv		BACTEC	>12.5 µg/mL
CNn1cc(C(=O)O)c(=O)c2cc(F)c(N3CCN(C)CC3)cc21	MIC90		64 strains			4 µg/mL
C=CCOc1cc2oc3cc(O)c(CCC(C)C)c(O)c3c(=O)c2c(CCC(C)C)c1OC	MIC		M22		resazurin	3.12 µg/mL
C1=C(c2nc(-c3ccccc3)no2)c2ccccc2C12CCN(CC1CC1)CC2	MBC		H37Rv		colony count / visual reading	0.4 µM
NCCCn1[nH]c(=O)c2cccnc2c1=O	inhibition	6.25 µg/mL	H37Rv		resazurin	-10%
Fc1ccc(-c2nc3ccccc3[nH]2)cc1	MIC		H37Rv		radiometric	>500 µM
CN[C@@H]1[C@H](O[C@H]2[C@H](O[C@H]3[C@H](O)[C@@H](O)[C@H](N=C(N)N)[C@@H](O)[C@@H]3N=C(N)N)O[C@@H](C)[C@]2(O)C=O)O[C@@H](CO)[C@H](O)[C@H]1O	MIC		M-4	MDR	resazurin	>8 µg/mL
Cc1ccc(/C=N/NC(=O)Nc2ccc3c(c2)C(=O)C(=O)N3CN2CCCC2)cc1	MIC		MDR		resazurin	>50 µg/mL
COc1c(O)cc2oc3cc(O)c(CCC(C)C)c(O)c3c(=O)c2c1CCC(C)C	MIC		M11	MDR	resazurin	1.56 µg/mL
Cc1ccc(-c2noc(C3=CC4(CCN(CC5CCCO5)CC4)c4ccccc43)n2)cn1	MIC		912253	Isoniazid-resistant	resazurin	1.56 µM
NNC(=O)c1ccncc1	MIC		H37Rv		resazurin	0.07 µg/mL
COC(=O)C1=C(C)NC(CF)=C(C(=O)OC)C1c1cccc2c(=O)c3ccccc3oc12	inhibition	12.5 µg/mL	H37Rv		BACTEC	0%
CCCc1cc(=O)oc2c3c(cc(OC(C)C)c12)O[C@H](C)[C@H](C)C3O	MBC		H37Ra			64 µg/mL
CCCCCCC(C)c1ccc2c(c1)C(=O)c1nc3ccncc3c(=O)n1-2	MIC		H37Rv			0.015 µg/mL
O=C1CSC(=Nc2ccccc2)N1c1ncccn1	MIC bound		H37Rv		BACTEC	>12.5 µg/mL
CCCc1cc(=O)oc2c(C(=O)CC)c(OCC)c3c(c12)OC(C)(C)CC3	MIC		H37Ra			>128 µg/mL
C=C(C)C1CC=C(C)/C(=N/NC(=O)c2cccnc2)C1	MIC		ETA-R			6.3 µg/mL
CC(=O)c1c(OCCCCBr)cc2oc3cc(OCCCCBr)c(CCC(C)C)c(O)c3c(=O)c2c1CCC(C)C	MIC		H37Ra		resazurin	200 µg/mL
COc1c(O)cc2oc3cc(O)c(CC=C(C)C)c(O)c3c(=O)c2c1CC=C(C)C	MIC		EMB-R			12.8 µg/mL
Cc1ccc2nc(Cl)c(C3C(C#N)=C(N)N(Nc4ccc(Br)cc4)C4=C3C(=O)CC(C)(C)C4)cc2c1	MIC		H37Rv		agar	47 µg/mL
COc1cccc2c1C(=O)c1c(O)c3c(c(O)c1C2=O)CC(O)(C1(C)OCCO1)CC3O	inhibition	12.5 µg/mL	H37Rv		BACTEC	11%
Cc1ccc(NC(=O)c2ccccc2O)cc1	MIC		CNCTC MY 331/8			62.5 µM
CC(=O)OCC1OC(OC(C)=O)C(On2nnc3c(-c4ccccc4)c(C)nn32)C(OC(C)=O)C1OC(C)=O	MIC bound		H37Rv		BACTEC	>128 µg/mL
O=C(Nc1ccc(C(F)(F)F)cc1)c1ncccc1O	MIC		CNCTC MY 331/8			32 µM
O=[N+]([O-])c1ccc(/C(=C/c2ccccc2)Cn2ccnc2)cc1	MIC bound		H37Rv		resazurin	<6.25 µg/mL
Cc1noc(C2=CC3(CCN(CC4CCCO4)CC3)c3ccccc32)n1	MIC		H37Rv		resazurin	>200 µM

The first 8 rows once more:

| compound | endpoint | tested at | strain | mutations | method | value |
|---|---|---|---|---|---|---|
| O=C(Nc1ccc([N+](=O)[O-])cc1)c1ccccc1O | MIC |  | CNCTC MY 331/8 |  |  | 8 µM |
| C/C(=N\OC(=O)c1c(-c2c(Cl)cccc2Cl)noc1C)c1ccccc1O | MIC bound |  | H37Rv |  | resazurin | >6.25 µg/mL |
| CC1(C)[C@H]2CC[C@]1(C)[C@H](OC(=O)/C=C/C=C/c1ccc3c(c1)OCO3)C2 | MIC |  | H37Ra |  |  | 25 µg/mL |
| CO[C@H]1/C=C/O[C@@]2(C)Oc3c(C)c(O)c4c(O)c(c(/C=N/N5CCN(C)CC5)c(O)c4c3C2=O)NC(=O)/C(C)=C\C=C\[C@H](C)[C@H](O)[C@@H](C)[C@@H](O)[C@@H](C)[C@H](OC(C)=O)[C@@H]1C | MIC |  | M21 | MDR | resazurin | >2 µg/mL |
| C1=C(c2nc(-c3cccnc3)no2)c2ccccc2C12CCN(CC1CCCO1)CC2 | MIC |  | Beijing (E-47/94) | Drug-resistant | resazurin | 0.78 µM |
| CCOc1ccc(/C=C2\N=C(c3ccccc3)OC2=O)cc1OCC | MIC bound |  | H37Rv |  | BACTEC | >12.5 µg/mL |
| O=C(NCc1ccccc1)c1ncccc1O | MIC |  | CNCTC MY 331/8 |  |  | 1000 µM |
| COc1ccc(NN2C(N)=C(C#N)C(c3cc4cc(C)ccc4nc3Cl)C3=C2CC(C)(C)CC3=O)cc1 | MIC |  | H37Rv |  | agar | 3 µg/mL |